Compound potency records, mixed from different reports. Data source: NIAID ChemDB in PubChem.

Shared fields: whole-cell or culture tests; species: Coxsackie virus; read by: cytopathic effect; endpoint: EC50

ECn: concentration that inhibits the pathogen or its effect by n%. Neighbouring rows are from separate reports.

compound	cells	strain or isolate	value
Cc1cn([C@@H]2C[C@H](CO)[C@H](O)C2)c(=O)[nH]c1=O	HeLa	TYPE B4	>400 µg/mL
O[C@H]1[C@@H](O)COC(n2cnc3cc(Cl)c(Cl)cc32)[C@@H]1O	HeLa	TYPE B4	>200 µg/mL
Cc1cn([C@H]2C[C@@H]3OC[C@H]2[C@@H]3CO)c(=O)[nH]c1=O	HeLa	TYPE B4	>400 µg/mL
O=c1[nH]c(=O)n([C@H]2C[C@H](O)[C@@H](CO)O2)cc1/C=C/Br	HeLa	TYPE B4	>400 µg/mL
CC(C)[Si]1(C(C)C)OC[C@H]2O[C@@H](n3cnc4cc(Cl)c(Cl)cc43)[C@H](O)[C@H]2O[Si](C(C)C)(C(C)C)O1	HeLa	TYPE B4	>10 µg/mL
O=[N+]([O-])c1ccc(N2CC[N+]3(CC2)CC[N+]2(CCN(c4ccc([N+](=O)[O-])c5nonc45)CC2)CC3)c2nonc12	HeLa	B3	>70 µg/mL
OCCOC([C@H](O)CO)n1cnc2cc(Cl)c(Cl)cc21	HeLa	TYPE B4	>200 µg/mL
Nc1nccc2c1ncn2[C@@H]1C[C@H](CO)[C@@H](O)[C@H]1O	HeLa	TYPE B4	>400 µg/mL
Nc1nc2c(ncn2C[C@H]2CC[C@@H](CO)C2)c(=O)[nH]1	HeLa	TYPE B4	>200 µg/mL
Nc1ncnc2c1ncn2[C@@H]1C[C@H](CO)[C@@H](O)C1	HeLa	TYPE B4	>100 µg/mL
Nc1ncnc2c1ncn2[C@@H]1C=C(CO)[C@@H](O)[C@H]1O	VERO	TYPE B4	>10 µg/mL
Nc1ncnc2c1ncn2C[C@H](O)CO	VERO	TYPE B4	>400 µg/mL
Nc1[nH]n2c(=O)cc(CN3CC[N+]4(CC3)CC[N+]3(CCN(Cc5cc(=O)n6[nH]c(N)c([N+](=O)[O-])c6n5)CC3)CC4)nc2c1[N+](=O)[O-]	HeLa	B3	>70 µg/mL
Nc1nccc2c1ncn2[C@@H]1C[C@H](CO)[C@@H](O)[C@H]1O	HeLa	TYPE B4	>400 µg/mL
Cc1nc(Cl)c([N+](=O)[O-])c(N2CC[N+](C)(C)CC2)n1	HeLa	B3	>70 µg/mL
C[C@H]1C[C@@H](n2cnc3c(N)ncnc32)[C@H](O)[C@@H]1O	HeLa	TYPE B4	>200 µg/mL
Cc1cn([C@@H]2C[C@H](CO)[C@@H](O)C2)c(=O)[nH]c1=O	VERO	TYPE B4	>100 µg/mL
Nc1ncnc2c1ncn2C[C@H](O)CO	VERO	TYPE B4	40 µg/mL
COc1ncnc(N2CC[N+]3(CC2)CC[N+]2(CCN(c4ncnc(OC)c4[N+](=O)[O-])CC2)CC3)c1[N+](=O)[O-]	HeLa	B3	>70 µg/mL
Nc1nccc2c1ncn2[C@@H]1C[C@H](CO)[C@@H](O)[C@H]1O	HeLa	TYPE B4	>400 µg/mL
O[C@@H]1CC(n2cnc3cc(Cl)c(Cl)cc32)OC[C@@H]1O	HeLa	TYPE B4	>100 µg/mL
NC(=O)c1c[se]c([C@@H]2O[C@H](CO)[C@@H](O)[C@H]2O)n1	VERO	TYPE B1/HA201468	15 µg/mL
O=[N+]([O-])c1c(N2CCCC2)ncnc1N1CC[N+]2(CC1)CC[N+]1(CCN(c3ncnc(N4CCCC4)c3[N+](=O)[O-])CC1)CC2	HeLa	B3	>70 µg/mL